Anti-infective test results gathered from many reports (values: NIAID ChemDB through PubChem).

All rows: whole-cell or culture tests; organism: HIV-1; read-out: fold resistance

Blank or dashed fields: not listed here.

smiles,mutations,read by,cells,strain or isolate,value
O=C1Nc2ccc(Cl)cc2[C@@](C#CC2CC2)(C(F)(F)F)O1,V106A,,MT-4,,3
CC(C)=CCOc1cc(NC(=S)c2ccoc2C)ccc1Cl,RT-K103N,cytopathic effect / XTT,CEM + CEM-SS,NL4-3 (RT K103N),16.7
CCCCC(CC)COC(=O)c1cc(NC(=S)OC(C)C)ccc1Cl,RT-L100I,syncytia,CEM,,106
CC(C)=CCOc1cc(NC(=S)c2ccsc2C)ccc1Cl,RT-Y181C,cytopathic effect / XTT,CEM + CEM-SS,UC38-RS (RT-Y181C),25
Cc1cc(C#N)cc(C(=O)c2cc(Cl)ccc2OCC(=O)Nc2ccc(S(N)(=O)=O)nc2C)c1,RT-G190A,β-galactosidase,HeLa + HELA CD4+,HXB2,~1
CCOCn1c(Sc2ccccc2)c(C(C)C)c(=O)[nH]c1=S,RT-K103N,syncytia,CEM,IIIB TIBO R82913-resistant (RT K103N),111
CC(C)=CCOc1cc(NC(=S)c2ccsc2C)ccc1Cl,RT-K103N,p24,CEM + CEM-SS,NL4-3,12
CC(C)[C@H](NC(=O)OCc1ccccn1)C(=O)N[C@@H](Cc1ccccc1)[C@@H](O)C[C@H](Cc1ccccc1)NC(=O)OCc1cccnc1,PR-L10R L63P,p24,MT-4,NL4-3,1
O=C1Nc2ccc(Cl)cc2[C@@](C#CC2CC2)(C(F)(F)F)N1,RT-K101E,,,,<6.32
CCC(=O)c1ccc(F)c([C@@H]2C[C@@H]2NC(=O)Nc2ccc(C#N)cn2)c1O,NNRTI-resistant (RT Y181V),β-galactosidase / luminescence,TZM-bl,LAI,58.6
Cc1ccc(C2CC2)c(-c2cc(F)c3c(c2C)CCCO3)c1[C@H](OC1CC1)C(=O)O,NRTI/NNRTI resistant K103N/Y181C,luminescence,MT-4,NL4-3,1
COc1ccccc1C(=O)Nc1ccc(Cl)c(C(=O)OC(C)C)c1,RT-Y181C K101E,cytopathic effect / XTT,CEM + CEM-SS,UC10-resistant (RT Y181C K101E),>21.5
CC[C@H](C)OC(=S)Nc1ccc(Cl)c(C(=O)OC(C)C)c1,RT-L100I,syncytia,CEM,,23.3
CC(C)c1c(Sc2ccccc2)n(COCc2ccccc2)c(=S)[nH]c1=O,RT-Y188H,syncytia,CEM,IIIB,≥2500
Cc1cc(S(N)(=O)=O)ccc1NC(=O)COc1ccc(Cl)cc1C(=O)c1cccc(C#N)n1,RT-V108I Y181C,β-galactosidase,HeLa + HELA CD4+,HXB2,~1
O=C1Nc2ccc(F)c(F)c2[C@@](/C=C/C2CC2)(C(F)(F)F)N1,RT-G190S,,,,65.8
Cc1cc(S(N)(=O)=O)ccc1NC(=O)COc1ccc(Cl)cc1C(=O)c1cccc(C#N)c1,RT-K103N Y181C,β-galactosidase,HeLa + HELA CD4+,HXB2 (RT-K103N Y181C) Recombinant,~10
CCOCn1c(Cc2ccccc2)c(C(C)C)c(=O)[nH]c1=O,RT-Y181C,syncytia,CEM,IIIB,110
Cc1cc(NS(=O)(=O)CC2CCCCC2)c(C)c(C(OC(C)(C)C)C(=O)O)c1-c1ccc2c(c1)CCCO2,H171Q,p24 / luminescence,MT-4,NL4-3,2
O=C(COc1ccc(Cl)cc1C(=O)c1nccs1)Nc1ccccc1,RT-Y181C,cytopathic effect / propidium iodide,MT-4,Nevirapine-resistant (RT Y181C),~10
CCOCn1c(Sc2ccccc2)c(C(C)C)c(=O)[nH]c1=O,Nevirapine resistant (RT Y181C),syncytia,CEM,IIIB,80

Fold resistance has wild type as its base. Neighbouring rows are from separate reports.